pEC50: −log10 of the molar value. Like-named read-outs stand apart in the source and are kept apart here.
How the values were obtained:
[1] = tested on: SHIV162p3 viral strain (B-R5); type: cell-based; conditions: TZM-bl cells, luciferase, 48 h; clade-tropism B-R5
Method: (§1) The antiviral activity of the tested compounds was determined by pre-incubating 10^4 TZM-bl cells/well in a 96-well plate for 30 min at 37° C. and 5% CO2 with or without a serial dilution of the compound. Next, 200 TCID50 of viruses were added to each well and cultures were incubated for 48 h before luciferase activity was quantified. Each compound was tested in triplicate in a single experiment. Antiviral activity was expressed as the percentage of viral inhibition compared to the untreated control and plotted against the compound concentration. Next, non-linear regression analysis was used to calculate the 50% effective concentration (EC50).
(§2) The miniCD4 conjugates were then evaluated for their antiviral activity on TZM-bl cells that express Luciferase under the control of the HIV LTR (collaboration G. Vanham, Anvers) according to the protocol described above. All antiviral results are reported in the table below in the form of EC50 values (nM).

[2] = tested on: HIV-1 NL4-3 (X4) in primary CD4+ T cells; test: Viral cell-to-cell transmission assay, HIV-1 NL4-3; type: cell-based; conditions: X4 virus HIV-1 NL4-3, primary CD4+ T cells, intracellular Gag
Method: (§3) Primary CD4+ T cells were purified from human peripheral blood by positive selection (Miltenyi). About 98% of cells were CD4+CD3+. For activation, primary T cells were treated with phytohemagglutinin (PHA) (1 μg/ml) for 24 h and then cultured with interleukin 2 (IL-2) (50 IU/ml) for 3-5 days before use. Primary cells were infected with HIV-1 NL4-3 and NLAD8 as described in Lepelley et al. PLoS Pathog 2011, 7:e1001284 and Malbec et al. J Exp Med 2013, 210:2813-2821. Donor cells were used a few days later, when about 20% of the cells were Gag+. Target cells were labeled with FarRed (2.5 μM; Molecular Probes). Donors were preincubated 1 h with the indicated doses of compounds. Donor and target cells were then mixed at a 1:2 ratio in 96-well plates at a final concentration of 1.5×10^6/ml in 200 μl, in duplicates. After 48, 72 or 96 h, cells were stained for intracellular Gag (KC57 mAb, Coulter) and analyzed by flow cytometry. When stated, Nevirapine (NVP; 12.5 nM) or the NIH45-46 broadly neutralizing antibody (bNAb) (Malbec et al. J Exp Med 2013, 210:2813-2821) was added 1 h before coculture.
(§4) mCD4.1, mCD4.2, mCD4.3 and their PS1 conjugates, as well as Nevirapine and NIH45-46, were evaluated for their capacity to inhibit cell-cell HIV transmission. This was performed using primary cells infected with R5 (HIV1-NLAD8) and X4 (HIV1-NL4-3) viruses.

[3] = Cytotoxic activity, WST-1 cell proliferation assay; type: cell-based; conditions: human; WST-1, 48 h
Method: Cytotoxicity was determined using the water-soluble tetrazolium-1 (WST-1) cell proliferation assay, which is based on the cleavage of the tetrazolium salt WST-1 to a formazan dye by cellular dehydrogenases. Because this bioreduction is dependent on the glycolytic production of NAD(P)H in viable cells, the amount of formazan dye formed is correlated directly to the number of viable cells in a culture. Quantification is performed by measuring absorbance at 450 nm in a multiwell plate reader. An amount of 10^4 cells was plated per well in a 96-well plate, and a serial dilution of compound was added. Forty eight hours later, cell proliferation reagent was added and cell viability was measured compared to untreated control cultures. Cell viability was plotted against the compound concentration, and nonlinear regression analysis was performed to evaluate the 50% cytotoxic concentration (CC50).
The miniCD4 conjugates were then evaluated for their cytotoxic activity according to the protocol described above. All cytotoxic results are reported in the table below in the form of CC50 values (nM).

[4] = tested on: Ca10-3 (CRF01) viral strain (AE-X4); type: cell-based, HIV; conditions: TZM-bl cells, luciferase, 48 h; clade-tropism AE-X4
Method: as §1, §2

[5] = tested on: p246F10 viral strain (C-R5); type: cell-based, HIV; conditions: TZM-bl cells, luciferase, 48 h; clade-tropism C-R5
Method: as §1, §2

[6] = tested on: VI824 viral strain (D-R5); type: cell-based, HIV; conditions: TZM-bl cells, luciferase, 48 h; clade-tropism D-R5
Method: as §1, §2

[7] = tested on: Bal viral strain (B-R5); type: cell-based, HIV
Method: as §1, §2

[8] = tested on: IIIB viral strain (B-X4); type: cell-based, HIV; conditions: TZM-bl cells, luciferase, 48 h; clade-tropism B-X4
Method: as §1, §2

[9] = tested on: VI1888 (CRF01) viral strain (AE-R5); type: cell-based, HIV
Method: as §1, §2

[10] = tested on: MN viral strain (B-X4); type: cell-based, HIV; conditions: TZM-bl cells, luciferase, 48 h; clade-tropism B-X4
Method: as §1, §2

[11] = tested on: SF162 viral strain (B-R5); type: cell-based, HIV
Method: as §1, §2

[12] = tested on: VI829 viral strain (C-R5); type: cell-based, HIV; conditions: TZM-bl cells, luciferase, 48 h; clade-tropism C-R5
Method: as §1, §2

[13] = tested on: VI820 viral strain (A-X4R5); type: cell-based, HIV; conditions: TZM-bl cells, luciferase, 48 h; clade-tropism A-X4R5
Method: as §1, §2

[14] = tested on: pREJO.c/2864 cl2 viral strain (B-R5); type: cell-based, HIV; conditions: TZM-bl cells, luciferase, 48 h; clade-tropism B-R5
Method: as §1, §2

[15] = tested on: MP568 (CRF02) viral strain (AG-R5); type: cell-based, HIV; conditions: TZM-bl cells, luciferase, 48 h; clade-tropism AG-R5
Method: as §1, §2

[16] = tested on: HIV-1 NLAD8 (R5) in primary CD4+ T cells; test: Viral cell-to-cell transmission assay, HIV-1 NLAD8; type: cell-based; conditions: R5 virus HIV-1 NLAD8, primary CD4+ T cells, intracellular Gag
Method: as §3, §4

[17] = tested on: HIV viral strains; test: Antiviral activity on TZM-bl cells, across the viral strains tested; type: cell-based
Method: as §1, §2

[18] = TZM-bl cells, luciferase, 48 h, clade-tropism B-R5, read-out: EC50, viral strain Bal
[19] = TZM-bl cells, luciferase, 48 h, clade-tropism AE-R5, read-out: EC50, viral strain VI1888 (CRF01)

SMILES	pEC50 [1]	block of cell-cell virus transmission [2]	CC50 at 48 h [3] [nM]	pEC50 [4]	pEC50 [5]	pEC50 [6]	pEC50 [7, 18]	pEC50 [8]	pEC50 [9, 19]	pEC50 [10]	pEC50 [12]	pEC50 [13]	pEC50 [14]	pEC50 [15]	block of cell-cell virus transmission [16]	also measured
CC(C)C[C@@H]1NC(=O)CNC(=O)[C@H](CC(C)C)NC(=O)[C@H](CO)NC(=O)[C@H](CO)NC(=O)[C@@H]2CSSC[C@@H](C(=O)N[C@H](C(N)=O)C(C)C)NC(=O)[C@H](C)NC(=O)[C@@H]3CSSC[C@H](NC(=O)[C@H](CCCCNC(=O)CCOCCOCCNC(=O)CCN4C(=O)CC(SCCC(=O)NCCCC(=O)N[C@@H](CO)C(=O)N[C@@H](Cc5ccc(OS(=O)(=O)O)cc5)C(=O)N[C@@H](CC(=O)O)C(=O)N[C@@H](Cc5ccc(OS(=O)(=O)O)cc5)C(=O)N[C@@H](CO)C(=O)N[C@@H](Cc5ccc(OS(=O)(=O)O)cc5)C(=O)N[C@@H](CC(=O)O)C(=O)N[C@@H](Cc5ccc(OS(=O)(=O)O)cc5)C(=O)N[C@@H](CO)C(=O)N[C@@H](Cc5ccc(OS(=O)(=O)O)cc5)C(=O)N[C@@H](CC(=O)O)C(=O)N[C@@H](Cc5ccc(OS(=O)(=O)O)cc5)C(=O)N[C@@H](CO)C(=O)O)C4=O)NC(=O)[C@H](Cc4c[nH]cn4)NC(=O)[C@H](CC(C)C)NC(=O)[C@H](CC(N)=O)NC(=O)CCSSC[C@H](NC(=O)[C@H](CCCNC(=N)N)NC(=O)CNC(=O)[C@H](CC(C)C)NC1=O)C(=O)N[C@@H](C)C(=O)NCC(=O)N[C@@H](CO)C(=O)N[C@@H](Cc1ccc(-c4ccccc4)cc1)C(=O)N3)C(=O)N[C@@H](CCC(N)=O)C(=O)N[C@@H](CC(C)C)C(=O)N[C@@H](CCCNC(=N)N)C(=O)N2 (stereo partly shown) [mCD4.1-PS1]	7.44	also but to a lesser extend	> 50000	9.24	6.14	7.40	9.27	10.89	5.96	10.10	7.80	7.60	9.18	6.51	also but to a lesser extend	pEC50 ([11]; TZM-bl cells, luciferase, 48 h, clade-tropism B-R5, read-out: EC50, viral strain SF162): 9.96
CC(C)C[C@@H]1NC(=O)CNC(=O)[C@H](CC(C)C)NC(=O)[C@H](CO)NC(=O)[C@H](CO)NC(=O)[C@@H]2CSSC[C@@H](C(=O)N[C@H](C(N)=O)C(C)C)NC(=O)[C@H](C)NC(=O)[C@@H]3CSSC[C@H](NC(=O)[C@H](CCCCNC(=O)CCOCCOCCNC(=O)CCN4C(=O)CC(SCCC(=O)NCCCC(=O)N[C@@H](CO)C(=O)N[C@@H](Cc5ccc(OS(=O)(=O)O)cc5)C(=O)N[C@@H](CC(=O)O)C(=O)N[C@@H](Cc5ccc(OS(=O)(=O)O)cc5)C(=O)N[C@@H](CO)C(=O)N[C@@H](Cc5ccc(OS(=O)(=O)O)cc5)C(=O)N[C@@H](CC(=O)O)C(=O)N[C@@H](Cc5ccc(OS(=O)(=O)O)cc5)C(=O)N[C@@H](CO)C(=O)N[C@@H](Cc5ccc(OS(=O)(=O)O)cc5)C(=O)N[C@@H](CC(=O)O)C(=O)N[C@@H](Cc5ccc(OS(=O)(=O)O)cc5)C(=O)N[C@@H](CO)C(=O)O)C4=O)NC(=O)[C@H](Cc4c[nH]cn4)NC(=O)[C@H](CC(C)C)NC(=O)[C@H](CC(N)=O)NC(=O)CCSSC[C@H](NC(=O)[C@H](CCCNC(=N)N)NC(=O)CNC(=O)[C@H](CC(C)C)NC1=O)C(=O)N[C@@H](C)C(=O)N1CCC[C@@H]1C(=O)N[C@@H]([C@@H](C)O)C(=O)N[C@@H](Cc1ccc(OCC4CCCCC4)cc1)C(=O)N3)C(=O)N[C@@H](CCC(N)=O)C(=O)N[C@@H](CC(C)C)C(=O)N[C@@H](CCCNC(=N)N)C(=O)N2 (stereo partly shown) [mCD4.2-PS1]	8.66	able to block cell-cell virus transmission	> 50000	9.92	7.24	9.17	10.47	11.15	5.97	10.34	8.40	10.51	9.57	8.31	able to block cell-cell virus transmission	fold increase of HIV antiviral activity compared to mCD4.1-PS1 ([7]; R5 strain Ba_L): 25 fold; pEC50 ([7]; discussion, read-out: EC50, Bal strain, B-R5): 10.47; pEC50 ([9]; discussion, read-out: EC50 for CRF01_AE R5): 5.96; fold increase of HIV antiviral activity compared to mCD4.1-PS1 ([11]; R5 strain SF162): 25 fold; pEC50 ([11]; discussion, read-out: EC50, SF162 strain, B-R5): 11.00; fold increase of antiviral activity compared to mCD4.2 alone [17]: 9-190 fold

From patent US9907860B2, “Conjugated molecules comprising a peptide derived from the CD4 receptor coupled to an anionic polypeptide for the treatment of AIDS” (INSTITUT PASTEUR, priority 2014, dated 2018)
